Key:
[1] = test system: NC(=O)C1=CN([C@@H]2O[C@H](COP(=O)(O)OP(=O)(O)OC[C@H]3O[C@@H](n4cnc5c(N)ncnc54)[C@H](OP(=O)(O)O)[C@@H]3O)[C@@H](O)[C@H]2O)C=CC1; test: purified protein; settings: oxaloacetate reduction, 100 mM Tris-HCl pH 8.0, 25 °C, apparent, varied: cofactor
[2] = test system: NC(=O)C1=CN([C@@H]2O[C@H](COP(=O)(O)OP(=O)(O)OC[C@H]3O[C@@H](n4cnc5c(N)ncnc54)[C@H](O)[C@@H]3O)[C@@H](O)[C@H]2O)C=CC1; test: purified protein; settings: oxaloacetate reduction, 100 mM Tris-HCl pH 8.0, 25 °C, apparent, varied: cofactor

Substance	Km [1]	kcat/Km [1]	kcat [2]	kcat/Km [2]	Km [2]
MaMDH (Ma7806MDH) (Microcystis aeruginosa PCC 7806SL; D44G)	147.700 ± 12.04 µM	106000 M⁻¹ s⁻¹	22.4 s⁻¹	855000 M⁻¹ s⁻¹	
MaMDH (Ma7806MDH) (Microcystis aeruginosa PCC 7806SL; D44G/G48S/H47R/I45S)	25.880 ± 1.13 µM	1.03e+06 M⁻¹ s⁻¹	27.1 s⁻¹		177.000 ± 4.83 µM
MaMDH (Ma7806MDH) (Microcystis aeruginosa PCC 7806SL; D44G/G48S/H47R/I45S/L49F/P50Q/V46E)	43.110 ± 3.22 µM	1.26e+06 M⁻¹ s⁻¹	46.1 s⁻¹		136.400 ± 6.31 µM
MaMDH (Ma7806MDH) (Microcystis aeruginosa PCC 7806SL; D44G/G48S/I45S)	38.230 ± 1.58 µM	635000 M⁻¹ s⁻¹	22.5 s⁻¹		179.600 ± 11.60 µM
